These results are taken from ChEMBL document CHEMBL1629572 (Antimicrob Agents Chemother, 2009).

Each structure is given as a SMILES string.

For experiment [1], the system named is Influenza A virus. Description: Ratio of IC50 for Influenza A virus (A/Kawasaki/IMS22A-954/2003(H3N2)) neuraminidase R292K mutant to IC50 for Influenza A virus (A/Kawasaki/IMS22A-954/2003(H3N2)) wild type neuraminidase.
For experiment [2], the system named is Influenza A virus. The experiment in a line: Ratio of IC50 for Influenza A virus (A/Yokohama/IMS9A-2029/2003(H3N2)) neuraminidase E119V mutant to IC50 for Influenza A virus (A/Yokohama/IMS9A-2029/2003(H3N2)) wild type neuraminidase.
The test system of experiment [3] is Influenza A virus. The experiment in a line: Ratio of IC50 for Influenza A virus (A/Kawasaki/MS31A-1030/2002(H3N2)) neuraminidase N294S mutant to IC50 for Influenza A virus (A/Kawasaki/MS31A-1030/2002(H3N2)) wild type neuraminidase.
The test system of experiment [4] is Influenza A virus. The experiment in a line: Ratio of IC50 for Influenza A virus (A/Yokohama/67/2006(clone 11)(H1N1)) neuraminidase H274Y mutant to IC50 for Influenza A virus (A/Yokohama/67/2006(clone 1)(H1N1)) wild type neuraminidase.

In the case of `CCOC(=O)C1=C[C@@H](OC(CC)CC)[C@H](NC(C)=O)[C@@H](N)C1` [OSELTAMIVIR], the Ratio in the experiment with Influenza A virus [1] was determined as 8400; in the experiment with Influenza A virus [2], 79; in the experiment with Influenza A virus [3] it was 32; with Influenza A virus [4] it was 330.
